Laboratory results: patent US20240109955A1 (published 2024)

Key:
Assay in all cases: cell-based or functional assay
[1] = molecular target: SARS-CoV-2 Omicron BA.4/5 spike protein (SARS-CoV-2)
[2] = molecular target: SARS-CoV-2 Omicron BQ.1 spike protein (SARS-CoV-2)
[3] = molecular target: SARS-CoV-2 Omicron XBB spike protein (SARS-CoV-2)
[4] = molecular target: SARS-CoV-2 Omicron XBB1.5 spike protein (SARS-CoV-2)
[5] = molecular target: SARS-CoV-2 Omicron BQ.1.1 spike protein (SARS-CoV-2)
[6] = molecular target: SARS-CoV-2 Omicron CH.1.1 spike protein (SARS-CoV-2)
[7] = molecular target: SARS-CoV-2 Omicron BA.2.75.2 spike protein (SARS-CoV-2)
[8] = molecular target: SARS-CoV-2 Omicron BF.7 spike protein (SARS-CoV-2)
[9] = molecular target: SARS-CoV-2 Omicron BA.4.6 spike protein (SARS-CoV-2)

B1: MX1042 (bispecific antibody)
chain: DTVMTQSPLSLPVTPGEPASISCRSSQSLLNSNGYNYLDWYVQKPGQSPQLLIYLGSNRASGVPDRFSGSGSGTDFTLKISRVEAEDVGVYYCMQPLQTPLFTFGPGTKVEIKGGSSGEIVLTQSPGTLSLSPGETATLSCRASQSFSSDLAWYQQKPGQAPRLLIYGASSRATGIPDRFSGSGSGTDFTLTISRLEPADFAVYYCQQYGSSPPVTFGGGTKVEIKGGGGSGGSGSGGGGSASGSGEVQLVESGGGLIQPGGSLRLSCAASGVIVSYNYMNWVRQAPGKGLEWVSVIYSGGSTFYADSVRGRFTISRDNSKNTLYLQMNSLRAEDTAVYYCARDLGPAGAFDIWGLGTMVTVSSGGSSGQVTLRESGPALVKPTQTLTLTCTFSGFSLSTRGVCVSWIRQPPGKALEWLAFIDWDDDKYYNTSLKTRLTISKDTSKNQVVLTMTNVHPVDTATYYCARISSHHGSSWCTTFDYWGQGALVTVSAASGGSGDKTHTCPPCPAPELLGGPSVFLFPPKPKDTLMISRTPEVTCVVVDVSHEDPEVKFNWYVDGVEVHNAKTKPREEQYNSYVVSVLTVLHQDWLNGKEYKCKVSNKALPAPIEKTISKAKGQPREPQVYTLPPSRDELTKNQVSLTCLVKGFYPSDIAVEWESNGQPENNYKTTPPVLDSDGSFFKKLTVDKSRWQQGNVFSCSVLHEALHSHYTQKSLSLSPG
IC50, pseudovirus neutralization [1]: 1.37 ng/mL | IC80, pseudovirus neutralization [1]: 2.75 ng/mL | IC50, pseudovirus neutralization [2]: 11.9 ng/mL | IC80, pseudovirus neutralization [2]: 27.4 ng/mL | IC50, pseudovirus neutralization [3]: 7.55 ng/mL | IC80, pseudovirus neutralization [3]: 16.5 ng/mL | IC50, pseudovirus neutralization [4]: 41.8 ng/mL | IC80, pseudovirus neutralization [4]: 81.5 ng/mL | IC50, pseudovirus neutralization [5]: 0.29 ng/mL | IC80, pseudovirus neutralization [5]: 3.5 ng/mL | IC50, pseudovirus neutralization [6]: 46.2 ng/mL | IC80, pseudovirus neutralization [6]: 158 ng/mL | IC50, pseudovirus neutralization [7]: 0.01 ng/mL | IC80, pseudovirus neutralization [7]: 0.05 ng/mL | IC80, pseudovirus neutralization [8]: 6.74 ng/mL | IC50, pseudovirus neutralization [9]: 2.1 ng/mL | IC80, pseudovirus neutralization [9]: 4.51 ng/mL
